Experimental data taken from article PMC3663898 (Antiviral research, 2013).

Conditions: rats, single oral dose 25, 50, 100 or 200mg/kg, 7-day observation

## CC(C)(C)C(=O)N(CCCCCCN1C[C@H](O)[C@@H](O)[C@H](O)[C@H]1CO)C1CCCCC1 [IHVR17028, N-cyclohexyl-N-(6-((2R,3R,4R,5S)-3,4,5-trihydroxy-2-(hydroxymethyl)piperidin-1-yl)hexyl)pivalamide]
  survival in single oral dose MTD study: survived
